Pooled drug test results. Numbers come from NIAID ChemDB, via PubChem.

All rows: whole-cell or culture tests; species: HIV-2; read by: cytopathic effect / trypan blue; read-out: EC50

ECn is the concentration giving n% inhibition of infection, replication or growth. Conditions beyond the fields shown may differ between rows.

COC(=O)CCNP(=O)(OC[C@@H]1C=C[C@H](n2cc(C)c(=O)[nH]c2=O)O1)Oc1ccccc1 ; strain or isolate: ROD ; cells: CEM + CEM/0 ; value: ≥250 µM
COC(=O)Cn1c(=O)c(C)cn([C@H]2C=C[C@@H](CO[Si](C)(C)C(C)(C)C)O2)c1=O ; strain or isolate: ROD ; cells: MT-4 ; value: >10 µM
Nc1nc(=O)n([C@H]2C=C[C@@H](CO)O2)cc1Cl ; strain or isolate: LAV-2 ; cells: MT-4 ; value: 19 µM
CC(C)(C)[Si](C)(C)O[C@H]1[C@H](n2ccc(=O)[nH]c2=O)O[C@H](CO)C1(O)C(N=[N+]=[N-])C(N)=O ; strain or isolate: ROD ; cells: MT-4 ; value: >250 µM
Nc1nc(=O)n([C@H]2CC[C@@H](CO)O2)cc1Cl ; strain or isolate: LAV-2 ; cells: MT-4 ; value: >500 µM
Cc1cn([C@@H]2O[C@H](COC(=O)C(C)(C)C)[C@@H](O)[C@H]2OC(=O)C(C)(C)C)c(=O)n(CC(=O)O)c1=O ; strain or isolate: ROD ; cells: MT-4 ; value: >50 µM
COC(=O)CCCCCNP(=O)(OC[C@@H]1C=C[C@H](n2cc(C)c(=O)[nH]c2=O)O1)Oc1ccccc1 ; strain or isolate: ROD ; cells: CEM + CEM TK- ; value: >250 µM
CNOC(=O)Cn1c(=O)c(C)cn([C@@H]2O[C@H](CO[Si](C)(C)C(C)(C)C)[C@@H](O)[C@H]2O[Si](C)(C)C(C)(C)C)c1=O ; strain or isolate: ROD ; cells: MT-4 ; value: >10 µM
Nc1ncnc2c1ncn2[C@H]1C=C[C@@H](CO)O1 ; strain or isolate: ROD ; cells: MT-4 ; value: 72 µM
COC(O)[C@@H]1OC12[C@@H](CO[Si](C)(C)C(C)(C)C)O[C@@H](n1cc(C)c(=O)[nH]c1=O)[C@@H]2O[Si](C)(C)C(C)(C)C ; strain or isolate: ROD ; cells: MT-4 ; value: >10 µM
CC(C)(C)[Si](C)(C)OCC1O[C@@H](NC(=O)NC(=O)c2ccccc2)C(O[Si](C)(C)C(C)(C)C)C12OS(=O)(=O)C=C2N ; strain or isolate: ROD ; cells: MT-4 ; value: >10 µM
COC(=O)/C=C1/[C@@H](O[Si](C)(C)C(C)(C)C)[C@H](n2cc(C)c(=O)[nH]c2=O)O[C@@H]1CO[Si](C)(C)C(C)(C)C ; strain or isolate: ROD ; cells: MT-4 ; value: >2 µM
Cc1cn([C@@H]2O[C@H](CO[Si](C)(C)C(C)(C)C)[C@@H](O)[C@H]2O[Si](C)(C)C(C)(C)C)c(=O)n(Cc2nn[nH]n2)c1=O ; strain or isolate: ROD ; cells: MT-4 ; value: >2 µM
COC(=O)CCCNP(=O)(OC[C@@H]1C=C[C@H](n2cc(C)c(=O)[nH]c2=O)O1)Oc1ccccc1 ; strain or isolate: ROD ; cells: CEM + CEM TK- ; value: >250 µM
COC(=O)/C=C1/[C@@H](O[Si](C)(C)C(C)(C)C)[C@H](n2ccc(=O)[nH]c2=O)O[C@@H]1CO[Si](C)(C)C(C)(C)C ; strain or isolate: ROD ; cells: MT-4 ; value: >2 µM
COC(=O)Cn1c(=O)c(C)cn([C@@H]2O[C@H](CO[Si](C)(C)C(C)(C)C)[C@@H](O[Si](C)(C)C(C)(C)C)[C@H]2O)c1=O ; strain or isolate: ROD ; cells: MT-4 ; value: >2 µM
CC(C)(C)[Si](C)(C)OC[C@H]1O[C@@H](n2ccc(=O)[nH]c2=O)[C@H](O[Si](C)(C)C(C)(C)C)[C@@]12O[C@H]2C(=O)NO ; strain or isolate: ROD ; cells: MT-4 ; value: >10 µM
CNOC(=O)Cn1c(=O)c(C)cn([C@@H]2O[C@H](CO[Si](C)(C)C(C)(C)C)[C@@H](O[Si](C)(C)C(C)(C)C)[C@H]2O)c1=O ; strain or isolate: ROD ; cells: MT-4 ; value: >10 µM

A second listing of 2 rows from above:

CC(C)(C)[Si](C)(C)OC[C@H]1O[C@@H](n2ccc(=O)[nH]c2=O)[C@H](O[Si](C)(C)C(C)(C)C)[C@@]12O[C@H]2C(=O)NO ; strain or isolate: ROD ; cells: MT-4 ; value: >10 µM
Cc1cn([C@@H]2O[C@H](CO[Si](C)(C)C(C)(C)C)[C@@H](O)[C@H]2O[Si](C)(C)C(C)(C)C)c(=O)n(Cc2nn[nH]n2)c1=O ; strain or isolate: ROD ; cells: MT-4 ; value: >2 µM